From article PMC8593684
The exact form of at least one protein or probe is not confirmed.

Protein sequences, listed by entry. Tags and fused reporters are not part of them. Lines headed by an entry give the natural chain unless they say otherwise; changes in a name come on top.
UniProt P03211: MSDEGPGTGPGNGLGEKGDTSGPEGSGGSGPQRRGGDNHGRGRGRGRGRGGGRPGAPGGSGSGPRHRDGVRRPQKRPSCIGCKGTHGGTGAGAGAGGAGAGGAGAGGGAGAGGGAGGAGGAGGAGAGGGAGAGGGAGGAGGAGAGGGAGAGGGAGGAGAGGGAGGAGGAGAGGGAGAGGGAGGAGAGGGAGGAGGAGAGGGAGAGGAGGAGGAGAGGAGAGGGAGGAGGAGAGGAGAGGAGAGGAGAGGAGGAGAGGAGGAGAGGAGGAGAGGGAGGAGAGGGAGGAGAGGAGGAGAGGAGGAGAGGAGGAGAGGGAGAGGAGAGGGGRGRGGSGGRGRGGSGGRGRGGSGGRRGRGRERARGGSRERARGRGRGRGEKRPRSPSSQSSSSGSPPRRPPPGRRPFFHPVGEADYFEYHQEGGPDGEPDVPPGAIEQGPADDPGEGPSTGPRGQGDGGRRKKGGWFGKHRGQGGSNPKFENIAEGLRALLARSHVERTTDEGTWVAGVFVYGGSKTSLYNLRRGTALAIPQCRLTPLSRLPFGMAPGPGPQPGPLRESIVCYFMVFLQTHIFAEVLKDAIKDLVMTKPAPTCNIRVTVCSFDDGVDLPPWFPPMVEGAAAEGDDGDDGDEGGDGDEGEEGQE

target: EBNA1 (Epstein-Barr virus) (UniProt P03211); assay: EMSA; details: 1.5 and 6 ug EBNA1, poly(dI.dC), 20 mM HEPES ([…], 20 ul, room temperature, 30 min, commercial protein, label: IR700

Question: Does “CCCTTTTAACAGCATTTCCTACCAAACCC (double strand) [ULBP1 site 2]” bind?
Answer: Result: binds

Question: Does “CCCTTTTGACAGTATGAGCTTCTAAACCC (double strand) [c-Myc site 2]” bind?
Answer: Result: binds

Question: Does “CCCTTTTGGAAATACGTCCTACCAAACCC (double strand) [Positive control (EBV Rep* site 1)]” bind?
Answer: Result: binds

Question: Does “CCCTTTTGGAAGCATCTGCTTAAACCC (double strand) [ULBP1 site 1]” bind?
Answer: Result: binds

Question: Does “CCCTTTTGGTAACCTCTCCTTCCAAACCC (double strand) [c-Myc site 1]” bind?
Answer: Result: binds
